This series deals with reduced nicotinamide adenine dinucleotide phosphate. Description: purified protein, by the assay type. To be noted: pH 8.0; varied: cofactor.

A word on the kcat: it is the maximal rate divided by the concentration of active sites. What is called kcat/Km is the turnover number divided by the Michaelis constant.

Take NpsB (Klebsiella oxytoca): the Km result was “(5.7 ± 1.7) × 10^1 uM”, the turnover number (kcat) worked out at 0.058 s⁻¹ and the kcat/Km was 1000 M⁻¹ s⁻¹.

(Values after PMC7354218 (ACS infectious diseases, 2020).)
